PubChem BioAssay AID1259414 | Drosophila RNAi Screening Center | 2018
Test: 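Host factors increasing or decreasing Wolbachia levels in cultured fly cells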 (primary screen). Cell system: Drosophila JW18 cells infected with Wolbachia. Reagent: long dsRNA against Drosophila genes, 0.25 µg dsRNA per well of a 384-well plate. Timing: 5 days. Treatment: cells persistently infected with Wolbachia before knock-down; no added drug. Measurement: 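Imaged fluorescence in situ signal for Wolbachia 23S rRNA per DAPI-counted host cell, given as a robust z-score within each plate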. Reading the numbers: Wolbachia per cell robust z: higher = more Wolbachia per host cell than the plate typical. Active means: 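Hit when robust z is 1.5 or more, or -1.5 or less, in at least two of three replicates; excludes dsRNAs with several or no targets, genes not expressed in JW18 and well A1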.
In all, the deposit lists about 24,000 reagents; shown is a random part of those with a known target gene and a result. Of all reagents, about 1,210 (5%) got an active call. 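Inactive calls also include excluded dsRNAs with several or no targets, genes unexpressed in JW18, and well A1, regardless of score.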 A number with no mark means an inactive call. The numbers tell different reagents against one gene apart. A plus sign joins genes that one reagent is predicted to hit.

CG43755 #1: Wolbachia per cell robust z, rep 1 = 0.249; Wolbachia per cell robust z, rep 2 = -0.146; Wolbachia per cell robust z, rep 3 = 0.206
CG43755 #2: Wolbachia per cell robust z, rep 1 = 0.263; Wolbachia per cell robust z, rep 2 = -1.82; Wolbachia per cell robust z, rep 3 = -0.327
CG43755 #3: Wolbachia per cell robust z, rep 1 = 1.16; Wolbachia per cell robust z, rep 2 = 0.158; Wolbachia per cell robust z, rep 3 = -0.384
drl (derailed) #1: Wolbachia per cell robust z, rep 1 = 0.827; Wolbachia per cell robust z, rep 2 = -0.317; Wolbachia per cell robust z, rep 3 = -0.899
drl (derailed) #2: Wolbachia per cell robust z, rep 1 = -0.622; Wolbachia per cell robust z, rep 2 = 0.122; Wolbachia per cell robust z, rep 3 = 1.18
CG10175 #1: Wolbachia per cell robust z, rep 1 = 0.0652; Wolbachia per cell robust z, rep 2 = -0.638; Wolbachia per cell robust z, rep 3 = 0.0515
CG10175 #2: Wolbachia per cell robust z, rep 1 = -4.76; Wolbachia per cell robust z, rep 2 = 0.597; Wolbachia per cell robust z, rep 3 = 1.19
CG10175 #3: Wolbachia per cell robust z, rep 1 = -2.44; Wolbachia per cell robust z, rep 2 = -0.219; Wolbachia per cell robust z, rep 3 = -0.116
CG13947 #1: Wolbachia per cell robust z, rep 1 = -0.615; Wolbachia per cell robust z, rep 2 = 0.467; Wolbachia per cell robust z, rep 3 = -2.18
CG13947 #2: Wolbachia per cell robust z, rep 1 = -0.0361; Wolbachia per cell robust z, rep 2 = -0.309; Wolbachia per cell robust z, rep 3 = -0.678
wgn (wengen): Wolbachia per cell robust z, rep 1 = -5.71; Wolbachia per cell robust z, rep 2 = -2.4; Wolbachia per cell robust z, rep 3 = -3.67
Lcp65Ag3 + Lcp65Ag1 + Lcp65Ag2: Wolbachia per cell robust z, rep 1 = 0.389; Wolbachia per cell robust z, rep 2 = 0.302; Wolbachia per cell robust z, rep 3 = 1.73
CG13926: Wolbachia per cell robust z, rep 1 = 0.201; Wolbachia per cell robust z, rep 2 = 0.809; Wolbachia per cell robust z, rep 3 = -2.08
RpL22 + lncRNA:CR42491: Wolbachia per cell robust z, rep 1 = 1.66; Wolbachia per cell robust z, rep 2 = 7.95; Wolbachia per cell robust z, rep 3 = 5.51
CR31562 (pseudo) #1: Wolbachia per cell robust z, rep 1 = -0.955; Wolbachia per cell robust z, rep 2 = -0.16; Wolbachia per cell robust z, rep 3 = 0.785
CR31562 (pseudo) #2: Wolbachia per cell robust z, rep 1 = 0.217; Wolbachia per cell robust z, rep 2 = 1.05; Wolbachia per cell robust z, rep 3 = -0.557
CG4701 #1: Wolbachia per cell robust z, rep 1 = 0.599; Wolbachia per cell robust z, rep 2 = -0.72; Wolbachia per cell robust z, rep 3 = 1.13
CG4701 #2: Wolbachia per cell robust z, rep 1 = 0.0153; Wolbachia per cell robust z, rep 2 = -0.229; Wolbachia per cell robust z, rep 3 = 0.927
CR31292 (pseudo): Wolbachia per cell robust z, rep 1 = -0.404; Wolbachia per cell robust z, rep 2 = 0.168; Wolbachia per cell robust z, rep 3 = 1.39
Pde1c (Phosphodiesterase 1c) #1: Wolbachia per cell robust z, rep 1 = 0.117; Wolbachia per cell robust z, rep 2 = 0.549; Wolbachia per cell robust z, rep 3 = -0.64
Pde1c (Phosphodiesterase 1c) #2: Wolbachia per cell robust z, rep 1 = -2.38; Wolbachia per cell robust z, rep 2 = 1.34; Wolbachia per cell robust z, rep 3 = 0.489
Pde1c (Phosphodiesterase 1c) #3: Wolbachia per cell robust z, rep 1 = -0.48; Wolbachia per cell robust z, rep 2 = 1.72; Wolbachia per cell robust z, rep 3 = 1.34
Pde1c (Phosphodiesterase 1c) #4: Wolbachia per cell robust z, rep 1 = -1.1; Wolbachia per cell robust z, rep 2 = -0.62; Wolbachia per cell robust z, rep 3 = -3.01
Pde1c (Phosphodiesterase 1c) #5: Wolbachia per cell robust z, rep 1 = -2.42; Wolbachia per cell robust z, rep 2 = -1.86; Wolbachia per cell robust z, rep 3 = -1.19
Pde1c (Phosphodiesterase 1c) #6: Wolbachia per cell robust z, rep 1 = -0.502; Wolbachia per cell robust z, rep 2 = -1.24; Wolbachia per cell robust z, rep 3 = -0.757
Pde1c (Phosphodiesterase 1c) #7: Wolbachia per cell robust z, rep 1 = -0.0683; Wolbachia per cell robust z, rep 2 = 0.679; Wolbachia per cell robust z, rep 3 = -0.0411
wrapper: Wolbachia per cell robust z, rep 1 = -0.71; Wolbachia per cell robust z, rep 2 = 0.31; Wolbachia per cell robust z, rep 3 = 0.257
Rassf (Ras association family member) #1: Wolbachia per cell robust z, rep 1 = -0.636; Wolbachia per cell robust z, rep 2 = -0.805; Wolbachia per cell robust z, rep 3 = -0.318
Rassf (Ras association family member) #2: Wolbachia per cell robust z, rep 1 = -1.05; Wolbachia per cell robust z, rep 2 = -0.418; Wolbachia per cell robust z, rep 3 = 0.0282
CG8617: Wolbachia per cell robust z, rep 1 = 1.16; Wolbachia per cell robust z, rep 2 = 0.699; Wolbachia per cell robust z, rep 3 = -2.84

Single entries from the entries so far:
Entry of Lcp65Ag3 + Lcp65Ag1 + Lcp65Ag2 under “Wolbachia per cell robust z, rep 3”: 1.73
CR31562 (pseudo) #1, Wolbachia per cell robust z, rep 2: -0.16
Under “Wolbachia per cell robust z, rep 3”, Rassf (Ras association family member) #1 is entered as -0.318
CG13947 #1, Wolbachia per cell robust z, rep 1 = -0.615
Value for CG13947 #2 in “Wolbachia per cell robust z, rep 1”: -0.0361
